Anti-infective test results gathered from many reports (values: NIAID ChemDB through PubChem).

All rows: whole-cell or culture tests

Percent inhibition refers to the dose given; in toxicity tests it is the harm to the cells. ECn: concentration that inhibits the pathogen or its effect by n%. An empty or dashed field is not shown. Conditions beyond the fields shown may differ between rows. a–b is a range or a potency band. A number after MIC or MFC names an inhibition level or a share of isolates. Fold resistance: result on the changed form divided by that on wild type.

structure	organism	method	dose	cells	mutations	strain	endpoint	result
N#CCSc1nsc(-c2ccccc2)c1C#N	Coxsackie virus	plaque count		HEP-2		TYPE B1	EC50	>10 µg/mL
CC(C)[C@H](NC(=O)[C@H](CCCN=C(N)N)NC(=O)N[C@@H](Cc1ccccc1)C(=O)O)C(=O)N[C@H](C=O)CCCN=C(N)N	Cryptosporidium parvum	cell count / microscopy	5 µg/mL				inhibition	32.3%
CC(C)CN(C[C@@H](O)[C@H](Cc1ccccc1)NC(=O)[C@H](CC(N)=O)NC(=O)c1ccc2ccccc2n1)C(=O)NC(C)(C)C	HIV-1	p24		MT-4	PR-I84V	NL4-3	EC95	0.4 µM
CCCCCCCCCCCCNc1nc(=O)c2ncn([C@@H]3O[C@H](CO)[C@@H](O)[C@H]3O)c2c(=O)[nH]1	West Nile virus	cytopathic effect		HepG2.2.15			EC50	1–3 µM
CCCCCCCCCCCCCCCC[N+](C)(C)CCl	Kaposi sarcoma virus	GFP / microscopy		BC3			EC50	0.5 µM
COC(=O)[C@H]1[C@@H]2C[C@@H](O[C@@H]3O[C@H](C)[C@@H](O)[C@H](N)[C@@H]3O)/C=C/C=C/C=C/C=C/C=C/C=C/C=C/[C@H](C)[C@@H](O)[C@H](C)[C@H](C)OC(=O)C[C@H](O)C[C@H](O)[C@@H](O)CC[C@H](O)C[C@H](O)C[C@](O)(C[C@@H]1O)O2	Vesicular stomatitis virus	plaque count	5 µg/mL	F6000			inhibition	1%
CC1(C)[C@@H](O[C@H]2O[C@H](C(=O)O)[C@@H](O)[C@H](O)[C@H]2O[C@@H]2O[C@H](C(=O)O)[C@@H](O)[C@H](O)[C@H]2O)CC[C@]2(C)[C@H]3C(=O)C=C4[C@@H]5C[C@@](C)(C(=O)O)CC[C@]5(C)CC[C@@]4(C)[C@]3(C)CC[C@@H]12	West Nile virus	virus yield		VERO		E101	EC90	625 µg/mL
Nc1nc(=O)n([C@@H]2O[C@H](CO)[C@@H](O)[C@@H]2F)cc1I	Herpes simplex virus 1	cytopathic effect		HEL		KOS GCV-resistant	EC50	7.35 µg/mL
Oc1ccc2ccccc2c1N=Nc1ccc(F)cc1	Kaposi sarcoma virus	GFP / microscopy		BC3			EC50	0.1 µM
C[C@H](Cn1cnc2c(N)ncnc21)OCP(=O)(O)O	SIV	p27 / ELISA		PBMC			EC50	0.0675 µM
C#CC[C@@H](C(=O)N[C@H](/C=C/C(=O)OCC)C[C@@H]1CCNC1=O)n1cccc(NC(=O)c2cc(C)on2)c1=O	Rhinovirus	cytopathic effect / XTT		H1-HELA		Serotype 39	EC90	0.277 µM
CC[C@H]1OC(=O)[C@H](C)[C@@H](O[C@H]2C[C@@](C)(OC)[C@@H](O)[C@H](C)O2)[C@H](C)[C@@H](O[C@@H]2O[C@H](C)C[C@H](N(C)C)[C@H]2O)[C@](C)(O)C[C@@H](C)CN(C)[C@H](C)[C@@H](O)[C@]1(C)O	Encephalitozoon cuniculi	cytopathic effect	100 µg/mL	MRC-5 fibroblasts			inhibition	28%
CO[C@H]1[C@@H](O)[C@@H](C)O[C@H](O[C@H]2[C@H](Oc3cccc4c(O)c5c(=O)oc6ccc(C)c7c(=O)oc(c34)c5c67)O[C@H](C)[C@H](O)[C@@H]2O)[C@@H]1O	Kaposi sarcoma virus	GFP / microscopy		BC3			EC50	5 µM
C[C@@]1(O)[C@H](O)[C@@H](CO)O[C@H]1c1c[nH]c2c(N)ncnc12	Hepatitis C virus	MTT	2 µg/mL	HepG2-5B			inhibition	0%
CCO/N=C/c1ccc(OCCC2CCN(c3ccc(C)nn3)CC2)cc1	Rhinovirus	neutral red		KB		1-CV15 (ICAM-1 receptor group 11)	EC50	0.003 µM
CC[C@H]1OC(=O)[C@H](C)[C@@H](O[C@H]2C[C@@](C)(OC)[C@@H](O)[C@H](C)O2)[C@H](C)[C@@H](O[C@@H]2O[C@H](C)C[C@H](N(C)C)[C@H]2O)[C@](C)(O)C[C@@H](C)/C(=N\OCOCCOC)[C@H](C)[C@@H](O)[C@]1(C)O	Encephalitozoon cuniculi	cytopathic effect	100 µg/mL	MRC-5 fibroblasts			inhibition	0%
Nc1nc(N)c2ncn(CCOCP(=O)(O)O)c2n1	Adenovirus					TYPE 4	MIC	>100 µg/mL
CCSc1nsc(-c2ccccc2)c1C#N	Encephalomyocarditis virus	plaque count		L929			EC50	20 µg/mL
Cc1cn([C@H]2C[C@H](N=[N+]=[N-])[C@@H](CO)O2)c(=O)[nH]c1=O	HIV-1	luciferase		HeLa	RT-A62T V118I M184V	Recombinant	fold resistance	0.5
NC1CCN(c2c(F)cc3c(=O)c(C(=O)O)cn(C4CC4)c3c2Cl)C1	Staphylococcus aureus					10 strains (oxacillin-resistant)	MIC50	0.25 µg/mL
CN[C@@H]1[C@H](O[C@H]2[C@H](O[C@H]3[C@H](O)[C@@H](O)[C@H](N=C(N)N)[C@@H](O)[C@@H]3N=C(N)N)O[C@@H](C)[C@]2(O)C=O)O[C@@H](CO)[C@H](O)[C@H]1O	Klebsiella pneumoniae					ESBL-3967	MIC	25 µg/mL
O=C1CCCN2C(CC1)C[C@@]13CN4CCCC/C=C/CC[C@@](O)(C=C(c5nccc6c5[nH]c5c(O)cccc56)[C@H]1CC4)[C@@H]23	Toxoplasma gondii		10 µM	HFF			inhibition	37%
COc1ccc2nc(C)cc(NCCCCCCCCCNc3cc(C)nc4ccc(OC)cc34)c2c1	Kaposi sarcoma virus	GFP / microscopy		BC3			EC50	1 µM
Nc1ncnc2c1ncn2C[C@@H](CO)OCP(=O)(O)O	Herpes simplex virus 1	cytopathic effect		HEL		KOS BVDU-resistant	EC50	0.048 µg/mL
Nc1ncnc2c1ncn2[C@H]1C[C@H](F)[C@@H](CO)O1	Punta Toro virus	plaque count		VERO			EC50	>32 µM
CCCCCCCCCCCCNc1nc(=O)c2[nH]cnc2c(=O)[nH]1	West Nile virus	cytopathic effect		HepG2.2.15			EC50	500 µM
Nc1ccnc2c1ncn2[C@H]1C=C[C@@H](OCP(=O)(O)O)O1	Adenovirus	virus yield				TRIM (TYPE 8)	EC90	14 µg/mL
CC1=C2C(=CC(C)(C)[C@@H]2O)C(=O)[C@](C)(O)C12CC2	Kaposi sarcoma virus	GFP / microscopy		BC3			EC50	<0.05 µM
Nc1ncnc2c1ncn2CCOCP(=O)(O)O	Adenovirus					TYPE 4	MIC	>100 µg/mL
CN(C)c1ccc(O)c2c1C[C@H]1C[C@H]3[C@H](N(C)C)C(=O)C(C(N)=O)=C(O)[C@@]3(O)C(=O)C1=C2O	Encephalitozoon cuniculi	cytopathic effect	5 µg/mL	MRC-5 fibroblasts			inhibition	4%
Cn1c2ccccc2c2c1cc(C#N)c(=O)n2-c1ccc([N+](=O)[O-])cc1	HIV-1	luciferase		HeLa	RT-K65R	NRTI resistant	EC50	0.0054 µM
N#Cc1c(SCCO)nsc1-c1ccccc1	Coxsackie virus	plaque count		HEP-2		TYPE B1	EC50	>5 µg/mL
Nc1nc(=O)c2[nH]cnc2c(=O)[nH]1	West Nile virus	cytopathic effect		HepG2.2.15			EC50	>500 µM
COC(=O)c1c(SC)nsc1-c1ccccc1	Encephalomyocarditis virus	plaque count		L929			EC50	15 µg/mL
CC(=O)NC[C@H]1CN(c2ccc(N3CCOCC3)c(F)c2)C(=O)O1	Staphylococcus aureus					Oxacillin-susceptible	MIC50	1–4 µg/mL
Cc1c(N2CCC(C(C)(C)N)C2)c(F)cn2c(=O)c(C(=O)O)cc(C3CC3)c12	Enterococcus faecium					ATCC 8043	MIC	0.05 µg/mL
Nc1nc(=O)c2ncn([C@@H]3C[C@H](O)[C@@H](CO)O3)c2c(=O)[nH]1	West Nile virus	cytopathic effect		HepG2.2.15			EC50	20–50 µM
O=C1C(=O)c2ccccc2C(O)=C1C1CCC(c2ccc(Cl)cc2)CC1	Encephalitozoon cuniculi	cytopathic effect	5 µg/mL	MRC-5 fibroblasts			inhibition	0%
Oc1cccc2c1[nH]c1c(C3=C[C@]4(O)C/C=C/CCCCCN5CC[C@@H]3[C@]3(C[C@@H]6/C=C\CCCCN6C34)C5)nccc12	Toxoplasma gondii		1 µM	HFF			inhibition	71%
Nc1nc(=O)c2ncn(CCOCP(=O)(O)O)c2c(=O)[nH]1	West Nile virus	cytopathic effect		HepG2.2.15			EC50	300 µM
Cc1c(N2CC[C@H](C3(N)CC3)C2)c(F)cn2c(=O)c(C(=O)O)cc(C3CC3)c12	Enterococcus faecium					ATCC 8043	MIC	0.2 µg/mL
CN(C)c1nsc(-c2ccccc2)c1C#N	Encephalomyocarditis virus	plaque count		L929			EC50	>15 µg/mL
NC12CC3CC(CC(C3)C1)C2	Influenza A virus					A/England/42/72	MIC	0.05 µg/mL
Nc1nc2c(ncn2[C@H]2CO[C@@H](CO)O2)c(=O)[nH]1	Duck hepatitis B virus			HepG2		WILD TYPE	EC50	22.3 µM
NC1CCCCCCC1	Influenza A virus					A/England/42/74	MIC	0.05 µg/mL
Cc1c(N2C[C@@H]3CCCN[C@@H]3C2)c(F)cn2c(=O)c(C(=O)O)cc(C3CC3)c12	Enterococcus faecium					ATCC 8043	MIC	0.2 µg/mL
CSc1nsc(-c2ccccc2)c1C#N	Encephalomyocarditis virus	plaque count		L929			EC50	10 µg/mL
C=C1NC(=O)C=NN1[C@@H]1O[C@H](CO)[C@@H](O)[C@H]1O	Kaposi sarcoma virus	GFP / microscopy		BC3			EC50	0.5 µM
Nc1ncnc2c1ncn2CCOCP(=O)(O)O	Herpes simplex virus 1	cytopathic effect		HEL		KOS HPMPC-resistant	EC50	7.4 µg/mL
S=c1nc[nH]c2c1ncn2C1CCCO1	Dengue virus	plaque count	100 µM	LLC-MK2		TYPE 2	inhibition	14%
Nc1nc2c(ncn2CCOCP(=O)(O)O)c(=O)[nH]1	Measles virus	cytopathic effect				CC	EC50	9 µg/mL
Nc1nc(N)c2ncn(CCOCP(=O)(O)O)c2n1	Herpes simplex virus 1	cytopathic effect		HEL		KOS S2242-resistant	EC50	27.6 µg/mL
O=S(=O)(F)Cc1ccccc1	Cryptosporidium parvum		1000 µM				inhibition	31.1%
CCCCCCCCCCCCCCNc1nc(=O)c2ncn([C@@H]3O[C@H](CO)[C@@H](O)[C@H]3O)c2c(=O)[nH]1	West Nile virus	cytopathic effect		HepG2.2.15			EC50	3–10 µM
NC12CC3CC(CC(C3)C1)C2	Influenza B virus	plaque count		MDCK		Guangdong/5/94	EC50	>50 µg/mL
CCCSc1nsc(-c2ccccc2)c1C(N)=O	Coxsackie virus	plaque count		HEP-2		TYPE B1	EC50	>300 µg/mL
CC(C)(C)NC(=O)[C@@H]1C[C@@H]2CCCC[C@@H]2CN1C[C@@H](O)[C@H](Cc1ccccc1)NC(=O)[C@H](CC(N)=O)NC(=O)c1ccc2ccccc2n1	HIV-1	p24		MT-4		NL4-3	EC95	0.025 µM
Nc1ncnc2c1ncn2CCOCP(=O)(O)O	Duck hepatitis B virus	hybridisation		Primary duck hepatocytes			EC90	0.36 µM
CO[C@H]1[C@@H](OC(=O)/C=C/C=C/C=C/C=C/C(=O)O)CC[C@@]2(CO2)[C@@H]1[C@@]1(C)O[C@@H]1CC=C(C)C	Encephalitozoon cuniculi	cytopathic effect		MRC-5 fibroblasts			EC50	<0.1 µg/mL
N#Cc1c(SCCCBr)nsc1-c1ccccc1	Encephalomyocarditis virus	plaque count		L929			EC50	2.5 µg/mL
N=C(N)CCNC(=O)C1CCC(N)=N1	Parainfluenza virus					TYPE 3	MIC	6 µg/mL
Nc1nc(N)c2ncn([C@H]3CO[C@@H](CO)O3)c2n1	Duck hepatitis B virus			Huh7		WILD TYPE	EC50	>100 µM
NC(=S)N/N=C\c1ncccc1O	Kaposi sarcoma virus	GFP / microscopy		BC3			EC50	5 µM
CO/N=C1\CN(c2nc3c(cc2F)c(=O)c(C(=O)O)cn3C2CC2)CC1CN	Streptococcus pneumoniae					622286	MIC	0.125 µg/mL
Nc1nc(N)c2ncn(C[C@@H](CO)OCP(=O)(O)O)c2n1	Duck hepatitis B virus	hybridisation		Primary duck hepatocytes			EC90	0.19 µM
O=C(O)P(=O)(O)O	Herpes simplex virus 1	cytopathic effect		HEL		KOS BVDU-resistant	EC50	35 µg/mL
Nc1nc(=O)c2ncn(COCCO)c2c(=O)[nH]1	West Nile virus	cytopathic effect		HepG2.2.15			EC50	>500 µM
Nc1nccc2c1ncn2[C@@H]1C[C@H](CO)[C@@H](O)[C@H]1O	Vesicular stomatitis virus	cytopathic effect		PRK			EC50	0.2 µg/mL
CO[C@@H]1[C@H](O)[C@@H](COP(=O)(O)OP(=O)(O)OP(=O)(O)O)O[C@H]1n1ccc(N)nc1=O	Hepatitis C virus	MTT	30 µg/mL	HeLa-5B			inhibition	48.52%
CO[C@@H]1C[C@@H](C[C@H]2CC[C@H](C)[C@H]([C@@H](C)C(=O)O)O2)O[C@]2(O[C@@](C)([C@H]3CC[C@@](C)(C4O[C@@H]([C@H]5O[C@@](O)(CO)[C@H](C)C[C@@H]5C)C[C@@H]4C)O3)C[C@H]2C)[C@@H]1C	Kaposi sarcoma virus	GFP / microscopy		BC3			EC50	<0.05 µM
Nc1nc2c(ncn2COC(CO)CO)c(=O)[nH]1	Herpes simplex virus 1	cytopathic effect		HEL		KOS PMEDAP-resistant	EC50	0.003 µg/mL
CCc1nc(N)nc(N)c1-c1ccc(Cl)cc1	Encephalitozoon cuniculi	cytopathic effect		MRC-5 fibroblasts			EC50	>50 µg/mL
CCOC(OCC)C(CC)[Se]c1ccccc1[N+](=O)[O-]	Kaposi sarcoma virus	GFP / microscopy		BC3			EC50	1 µM
Cc1cc(S(N)(=O)=O)ccc1NC(=O)COc1ccc(Cl)cc1C(=O)c1cc(Cl)cc(C#N)c1	HIV-1	β-galactosidase		MAGI	RT-P225H	NNRTI-resistant (RT P225H)	fold resistance	0.58
Nc1nc(=O)c2ncn(COCCOCc3ccccc3)c2c(=O)[nH]1	West Nile virus	cytopathic effect		HepG2.2.15			EC50	5–10 µM
Nc1ccc(S(=O)(=O)Nc2ncccn2)cc1	Toxoplasma gondii		2 µg/mL				inhibition	55%
Nc1ccn([C@@H]2CS[C@H](CO)O2)c(=O)n1	Duck hepatitis B virus			Huh7		WILD TYPE	EC50	3.1 µM